Anti-infective test results gathered from many reports (values: NIAID ChemDB through PubChem).

Common to all: target-level tests; organism: Toxoplasma gondii; protein: Dihydrofolate reductase; endpoint: IC50

Rows are shuffled and stem from different studies. ICn is the concentration giving n% inhibition.

smiles,value
COc1ccc(OC)c(C(C)Cc2coc3nc(N)nc(N)c23)c1,15 µM
Nc1nc(N)c2c(n1)C1CCC2C1,5.6 µM
Nc1nc(N)c2cc(COC(=O)c3ccoc3)ccc2n1,0.25 µM
CC(Cc1c[nH]c2nc(N)nc(N)c12)c1ccc2ccccc2c1,0.0148 µM
Nc1nc(N)c2cc3c(ccc4ccccc43)nc2n1,0.3 µM
CC1(C)C2Cc3c(N)nc(N)nc3C1C2,39 µM
C/C(=C\c1coc2nc(N)nc(N)c12)c1ccc(Cl)cc1Cl,10 µM
CC(C)(C)C1CCc2nc(N)nc(N)c2C1,0.018 µM
Nc1nc(N)c2cc(COC(=O)c3cccc4ccccc34)ccc2n1,0.1 µM
Nc1nc(N)c2cc3c(nc2n1)-c1ccccc1CC3,0.18 µM
Nc1nc(N)c2cc(COC(=O)c3cccs3)ccc2n1,0.13 µM
COc1cc(C(C)Cc2coc3nc(N)nc(N)c23)cc(OC)c1OC,27 µM
COc1cc(CCc2c[nH]c3nc(N)nc(N)c23)cc(OC)c1OC,0.037 µM
COc1ccc2ccc3nc4nc(N)nc(N)c4cc3c2c1,0.34 µM
Nc1nc(N)c2cc(COC(=O)c3cccc(-c4ccccc4)c3)ccc2n1,0.18 µM
COc1cccc2c1CCc1cc3c(N)nc(N)nc3nc1-2,0.15 µM
CC(Cc1c[nH]c2nc(N)nc(N)c12)c1ccccc1,0.138 µM

2 of the rows above, restated:

smiles	value
Nc1nc(N)c2cc3c(nc2n1)-c1ccccc1CC3	0.18 µM
Nc1nc(N)c2cc(COC(=O)c3ccoc3)ccc2n1	0.25 µM